This note sets out measurements from patent US11407715B2, “Substituted indoline derivatives as dengue viral replication inhibitors” (JANSSEN PHARMACEUTICALS, INC., priority 2017, dated 2022).

Type in all cases: cell-based, Dengue virus
One data set concerns DENV-1 strain TC974#666. The data set is described as follows: Tetravalent RT-qPCR assay, serotype 1. The conditions noted are these: RT-qPCR serotype 1 TC974#666; selectivity index. The procedure: (§1) The antiviral activity of the compounds of the invention was tested against DENV-1 strain TC974#666 (NCPV), DENV-2 strain 16681, DENV-3 strain H87 (NCPV) and DENV-4 strain H241 (NCPV) in a RT-qPCR assay. Therefore, Vero cells were infected with either DENV-1, or -2, or -3, or -4 in the presence or absence of test compounds. At day 3 post-infection, the cells were lysed and cell lysates were used to prepare cDNA of both a viral target (the 3′UTR of DENV; Table 2) and a cellular reference gene (β-actin, Table 2). Subsequently, a duplex real time PCR was performed on a Lightcycler480 instrument. The generated Cp value is inversely proportional to the amount of RNA expression of these targets. Inhibition of DENV replication by a test compound results in a shift of Cp's for the 3′UTR gene. On the other hand, if a test compound is toxic to the cells, a similar effect on β-actin expression will be observed. The comparative ΔΔCp method is used to calculate ECs50, which is based on the relative gene expression of the target gene (3′UTR) normalized with the cellular housekeeping gene (β-actin). In addition, CC50 values are determined based on the Cp values acquired for the housekeeping gene β-actin.
(§2) The culture medium consisted of minimal essential medium supplemented with 2% of heat-inactivated fetal calf serum, 0.04% gentamycin (50 mg/mL) and 2 mM of L-glutamine. Vero cells, obtained from ECACC, were suspended in culture medium and 75 μL/well was added in 96-well plates (10000 cells/well), which already contain the antiviral compounds. […] In addition, each plate contains wells which are assigned as virus controls (containing cells and virus in the absence of compound) and cell controls (containing cells in the absence of virus and compound). Once the cells were added in the plates, the plates were incubated in a fully humidified incubator (37° C., 5% CO2) until the next day. Dengue viruses serotype-1, 2, 3 and 4 were diluted in order to obtain a Cp of ˜22-24 in the assay. Therefore, 25 μL of virus suspension was added to all the wells containing test compound and to the wells assigned as virus control. In parallel, 25 μL of culture medium was added to the cell controls. Next, the plates were incubated for 3 days in a fully humidified incubator (37° C., 5% CO2). After 3 days, the supernatant was removed from the wells and the cells were washed twice with ice-cold PBS (˜100 μL). The cell pellets within the 96-well plates were stored at −80° C. for at least 1 day. Next, RNA was extracted using the Cells-to-CT™ lysis kit, according to the manufacturer's guideline (Life Technologies). The cell lysates can be stored at −80C or immediately used in the reverse transcription step.
(§3) In preparation of the reverse transcription step, mix A (table 3A) was prepared and 7.57 μL/well was dispensed in a 96-well plate. After addition of 5 μL of the cell lysates, a five minute denaturation step at 75° C. was performed (table 3B). Afterwards, 7.43 μL of mix B was added (table 3C) and the reverse transcription step was initiated (table 3D) to generate cDNA.
(§4) Finally, a RT-qPCR mix was prepared, mix C (table 4A), and 22.02 μL/well was dispensed in 96-well LightCycler qPCR plates to which 3 μL of cDNA was added and the qPCR was performed according to the conditions in table 4B on a LightCycler 480.
(§5) Using the LightCycler software and an in-house LIMS system, dose response curves for each compound were calculated and the half maximal effective concentration (EC50) and the half maximal cytotoxic concentration (CC50) were determined (Tables 5-8).

The next data set has as its system DENV-2 strain 16681. The data set is described as follows: Tetravalent RT-qPCR assay, serotype 2. The conditions noted are these: RT-qPCR serotype 2 16681; selectivity index. The procedure: as §1, §2, §3, §4, §5
In general terms: Real-time PCR tracks product formation cycle by cycle.

Another data set concerns DENV-3 strain H87. The data set is described as follows: Tetravalent RT-qPCR assay, serotype 3. The note with it: RT-qPCR serotype 3 H87; selectivity index. How it is done: as §1, §2, §3, §4, §5
The subject of the next data set is DENV-4 strain H241. Nature of the data set: Tetravalent RT-qPCR assay, serotype 4. The conditions noted are these: RT-qPCR serotype 4 H241; selectivity index. How it is done:
as §1, §2, §3, §4, §5

Which two values form the index is not stated here.

For `COc1cc(NC(C(=O)N2CCc3ccc(OC(F)(F)F)cc32)c2ccc(Cl)cc2)cc(OCC2CC2C(=O)O)c1` (stereo not shown) [Compound 6BB], the SI in the data set with DENV-1 strain TC974#666 is above 24100; in the data set with DENV-2 strain 16681 it was above 23700; in the data set on DENV-3 strain H87, above 1320; with DENV-4 strain H241, 205.

For the compound `COc1cc(NC(C(=O)N2CCc3ccc(OC(F)(F)F)cc32)c2ccc(Cl)cc2)cc(OC2CC(C(=O)O)C2)c1` (stereo not shown) [Compound 7B], the SI is above 23200 in the data set on DENV-1 strain TC974#666, above 30600 in the data set on DENV-2 strain 16681, above 1810 in the data set on DENV-3 strain H87 and 582 in the data set on DENV-4 strain H241.

Regarding `COc1cc(NC(C(=O)N2CCc3ccc(OC(F)(F)F)cc32)c2ccc(Cl)cc2)cc(OC2CC(C(=O)O)C2)c1` (stereo not shown) [Compound 8B], the SI is recorded as above 38900 with DENV-1 strain TC974#666, above 54100 in the data set with DENV-2 strain 16681, above 7020 in the data set on DENV-3 strain H87 and 8240 with DENV-4 strain H241.

With `COc1cc(NC(C(=O)N2CCc3ccc(OC(F)(F)F)cc32)c2ccc(Cl)cc2)cc(OCC2CC(C(=O)O)C2)c1` (stereo not shown) [Compound 10B], the SI in the data set with DENV-1 strain TC974#666 was above 18700; in the data set with DENV-2 strain 16681 it was above 27400; in the data set with DENV-3 strain H87, above 1370; in the data set with DENV-4 strain H241, above 57.

Take `COc1cc(NC(C(=O)N2CCc3ccc(OC(F)(F)F)cc32)c2ccc(Cl)cc2)cc(OCC2CC(C(=O)O)C2)c1` (stereo not shown) [Compound 11B]: the SI in the data set on DENV-1 strain TC974#666 is reported as above 11800; with DENV-2 strain 16681, above 22400; with DENV-3 strain H87, above 1650; in the data set on DENV-4 strain H241, 273.

For the compound `COc1cc(NC(C(=O)N2CCc3ccc(OC(F)(F)F)cc32)c2ccc(Cl)cc2OC)cc(OCC2CC2C(=O)O)c1` (stereo not shown) [Compound 19AB], the SI is above 56300 in the data set with DENV-1 strain TC974#666, above 92300 in the data set with DENV-2 strain 16681, above 8790 in the data set on DENV-3 strain H87 and 8200 with DENV-4 strain H241.

Take `COc1cc(NC(C(=O)N2CCc3ccc(OC(F)(F)F)cc32)c2ccc(Cl)cc2OC)cc(OCC2CC2C(=O)O)c1` (stereo not shown) [Compound 19BB]: the SI with DENV-1 strain TC974#666 is reported as above 13300; with DENV-2 strain 16681, above 14100; in the data set on DENV-3 strain H87 it was above 1910; in the data set with DENV-4 strain H241, 905.

Regarding `COc1cc(NC(C(=O)N2CCc3cc(OC)c(C(F)(F)F)cc32)c2ccc(Cl)cc2)cc(OCC2CC2C(=O)O)c1` (stereo not shown) [Compound 22AB], the SI is above 15700 in the data set on DENV-1 strain TC974#666, above 46400 with DENV-2 strain 16681, above 4430 in the data set on DENV-3 strain H87 and 2890 with DENV-4 strain H241.

As to `COc1cc(NC(C(=O)N2CCc3cc(OC)c(C(F)(F)F)cc32)c2ccc(Cl)cc2)cc(OCC2CC2C(=O)O)c1` (stereo not shown) [Compound 22BB], the SI with DENV-1 strain TC974#666 is reported as above 1740; with DENV-2 strain 16681, above 9450; with DENV-3 strain H87, above 245; in the data set with DENV-4 strain H241, 126.

Consider `COc1cc(NC(C(=O)N2CCc3cc(OC)c(C(F)(F)F)cc32)c2ccc(Cl)cc2)cc(OC2CC(C(=O)O)C2)c1` (stereo not shown) [Compound 23B], for which the SI is recorded as above 18200 with DENV-1 strain TC974#666, above 51700 in the data set on DENV-2 strain 16681, above 6770 in the data set with DENV-3 strain H87 and 2230 with DENV-4 strain H241.

As to `COc1cc(NC(C(=O)N2CCc3cc(OC)c(C(F)(F)F)cc32)c2ccc(Cl)cc2)cc(OCC2CC(C(=O)O)C2)c1` (stereo not shown) [Compound 24B], the SI in the data set with DENV-1 strain TC974#666 is reported as above 898; in the data set on DENV-2 strain 16681 it was above 11300; in the data set on DENV-3 strain H87 it was above 123; in the data set with DENV-4 strain H241 it was 115.

With `COc1cc(NC(C(=O)N2CCc3cc(OC)c(C(F)(F)F)cc32)c2ccc(Cl)cc2)cc(OCC2CC(C(=O)O)C2)c1` (stereo not shown) [Compound 25B], the SI is above 1210 in the data set with DENV-1 strain TC974#666, above 6080 in the data set on DENV-2 strain 16681, above 190 in the data set on DENV-3 strain H87 and 202 with DENV-4 strain H241.

As for `COc1cc(NC(C(=O)N2CCc3ccc(OC(F)(F)F)cc32)c2ccc(Cl)cc2)cc(OCC2(F)CC2C(=O)O)c1` (stereo not shown) [Compound 28AB], the SI was above 4260 with DENV-1 strain TC974#666, above 5530 in the data set with DENV-2 strain 16681, above 277 with DENV-3 strain H87 and 158 with DENV-4 strain H241.
